PubChem BioAssay AID504761 | Drosophila RNAi Screening Center – 2011

Aim: 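Fly genes whose silencing reduces dengue virus type 2 infection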 (primary screen)
System: D.Mel-2 cells from Drosophila
Reagent: long dsRNA against Drosophila genes
Treatment: infection with dengue virus type 2; dose and infection time not stated
Detection: 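Cells stained for dengue envelope protein and imaged; percent of infected cells per well on duplicate plates, ranked by infection, with stained nuclei counted for cell number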
Reading the numbers: infection score: higher = more virus-infected cells; cell count: higher = more cells in the well
Call rule: 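Low infection ranks in the two replicates (chance level up to 0.065) followed by a retest with a 1.5-fold or larger significant decrease, p below 0.05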
Meaning of the calls: active = confirmed: knock-down lowers infection; inactive = not picked or not confirmed
In all, the deposit lists about 22,000 reagents; below is an unselected part of those that have a named target and a result. Of all reagents, 116 (0.52%) were called active. 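Calls depend on retest data that are not deposited; infection was ranked per plate without normalising between plates; the unit of the infection score is not given.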 Raw values vary from plate to plate and are shown uncorrected. Unmarked entries are inactive. Names joined by + are all predicted targets of the reagent. Not all columns of the deposit are shown. The record does not give: the amount of reagent, the time to read-out.

Depletion of CG9281 [DRSC20179] gave: infection score, replicate 1 = 0.88; cell count, replicate 1 = 6917.
CG9281 [DRSC24522] gave infection score, replicate 1 = 9.84; cell count, replicate 1 = 6789.
Mettl3 [DRSC15921] gave infection score, replicate 1 = 3.04; cell count, replicate 1 = 6318.
With knock-down of Mettl3 [DRSC27423], the record shows infection score, replicate 1 = 17.9; cell count, replicate 1 = 6437.
Knock-down of CG7557 [DRSC10878] gave: infection score, replicate 1 = 7.25; cell count, replicate 1 = 6701.
Against CG7557 [DRSC28227], the entry reads infection score, replicate 1 = 18.3; cell count, replicate 1 = 5149.
With knock-down of CG4820 [DRSC15654] the results were infection score, replicate 1 = 1.71; cell count, replicate 1 = 6372.
CG7367 [DRSC03049] showed infection score, replicate 1 = 1.53; cell count, replicate 1 = 6410.
After knock-down of CG7367 [DRSC28024], the record shows infection score, replicate 1 = 18.1; cell count, replicate 1 = 4049.
For simj [DRSC10942], the entry reads infection score, replicate 1 = 7.27; cell count, replicate 1 = 6670.
Silencing of simj [DRSC25345] came out at: infection score, replicate 1 = 8.52; cell count, replicate 1 = 6265.
Against CG6118 [DRSC23197], the values are infection score, replicate 1 = 0.94; cell count, replicate 1 = 6147.
CG6118 [DRSC29922] scored infection score, replicate 1 = 10.8; cell count, replicate 1 = 6382.
With knock-down of cib [DRSC18660], the screen gave infection score, replicate 1 = 16.8; cell count, replicate 1 = 3657.
With knock-down of CG4586 [DRSC18373] the results were infection score, replicate 1 = 2.29; cell count, replicate 1 = 6538.
For CG3927 + nsr [DRSC27267], the entry reads infection score, replicate 1 = 10.1; cell count, replicate 1 = 4689.
CG8306 [DRSC07141] showed infection score, replicate 1 = 12; cell count, replicate 1 = 6487.
For CG8306 [DRSC24656], the values are infection score, replicate 1 = 1.44; cell count, replicate 1 = 5972.
Depletion of Polr3A [DRSC19766] came out at: infection score, replicate 1 = 2.53; cell count, replicate 1 = 4815.
Knock-down of Cpr65Ea [DRSC11027] came out at: infection score, replicate 1 = 4.52; cell count, replicate 1 = 6300.
Cpr65Ea [DRSC25692] showed infection score, replicate 1 = 2.23; cell count, replicate 1 = 6534.
Syngr [DRSC06003] scored infection score, replicate 1 = 1.77 (active); cell count, replicate 1 = 6254.
After knock-down of CG34253 [DRSC09531], the screen gave infection score, replicate 1 = 3.12; cell count, replicate 1 = 5479.
Against CG31515 [DRSC13610] the deposit lists infection score, replicate 1 = 2.88; cell count, replicate 1 = 5964.
Depletion of EcR [DRSC04906] came out at: infection score, replicate 1 = 12.8; cell count, replicate 1 = 6094.
EcR [DRSC04910] scored infection score, replicate 1 = 14.7; cell count, replicate 1 = 4351.
Knock-down of Osi11 [DRSC12282] gave: infection score, replicate 1 = 8.19; cell count, replicate 1 = 6142.

Part of the list above, reformatted.
Gene	DRSC id	infection score, replicate 1	cell count, replicate 1
Polr3A	DRSC19766	2.53	4815
Cpr65Ea	DRSC11027	4.52	6300
Cpr65Ea	DRSC25692	2.23	6534
